The text below walks through data of US12612459B2, “Methods of identifying agents that block MCD28 cleavage by MMPS” (BIOND BIOLOGICS LTD., priority 2019, dated 2026).

This test has as its system SEB or CMV stimulated human PBMCs. To be noted: PBMCs from healthy human donors activated with SEB or CMV; sCD28 by ELISA; FIG. 2A-B. In general terms: ELISA stands for enzyme-linked immunosorbent assay.

On to ARP-100, for which the “CD28 cleavage and sCD28 production” value is “capable of suppressing CD28 cleavage and sCD28 production”.
